Tested on: E. coli 70S ribosome
Test: X-ray crystallography of 70S ribosome crystals soaked with neomycin
Assay type: binding, Escherichia coli

With neomycin the “binding site seen in difference electron density” value (rotated ribosome) was “present in the h44 site as well as a site at the base of helix H69 in the large subunit” and the “binding site seen in difference electron density” value (unrotated ribosome) was “bound in its canonical h44 decoding site”.

Source: US9441263B2, “Ribosomal targets for antibiotic drug discovery” (Cornell University, priority 2011, dated 2016)
